# Screening data, single-dose tests

Data taken from ChEMBL document CHEMBL3988442, “University of Dundee, Small-Polar-MMV Screening Library” (2021).

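Phenotypic screen: M. tuberculosis growth, glucose 7H9 medium, 3 days; the read-out is not stated. Tested at 500 µM. Higher reads as more growth inhibition (inferred: compounds with an IC50 in retests scored well above the rest). Of about 18,000 compounds tested this way, about 1,400 (7.9%) reached 50% or more in at least one test.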

Results are given as percent effect. The record does not define 0% and 100%; most values in the screen are far below 50% and negative numbers occur (in some assays of this library far below -100). This is part of a subset picked to be rich in strong results.

- C1CN[C@H]2COC[C@H]2C1 : -2.419%
- FC(F)(F)Cn1cccn1 : -11.57%
- CCN(CC)S(=O)(=O)c1ccc(CCC(=O)NC)cc1 : 31.51%
- Nc1ncn(Cc2ccccn2)n1 : -0.2795%
- CCNS(=O)(=O)CCNC(=O)c1cc(C)ccc1O : 38.14%
- CCc1nnc(N2CCN(C(=O)c3ccco3)CC2)o1 : 27.35%
- COCCNCc1cn(CCC(N)=O)c2ccccc12 : 2.839%
- CN(c1ccc(CN)cc1)S(C)(=O)=O : 2.336%
- NS(=O)(=O)c1ccc(OCC(F)(F)F)cc1 : 18.59%
- Cc1cccc(OCCNS(C)(=O)=O)c1 : 32.67%
- Cc1cc(C)c(CNC(=O)CCc2nccs2)c(=O)[nH]1 : -14.17%
- CNCC(=O)NCC1CCN(c2cnn(C)c(=O)c2)C1 (configuration not stated) : 3.457%
- CC1CCCN(C(=O)c2csc(S(N)(=O)=O)c2)C1 (configuration not stated) : -2.069%
- CC(C(=O)NC1CC1)N1CCN(C)c2ccccc2C1 (configuration not stated) : 54.58%
- COCCN1CCN(CCc2ccccn2)CC1C (configuration not stated) : 1.987%
- CS(=O)(=O)N1CCC(CN)C1 (configuration not stated) : 3.437%
- Cc1cc(CS(=O)(=O)Cc2ccc(C(N)=O)cc2)no1 : -8.691%
- CN(C)[C@H]1CCN(C(=O)CCc2ccncc2)C1 : -18.69%
- CN(CC(N)=O)Cc1cccc(Cl)c1 : 17.58%
- COCCCNC(=O)C1=Cc2ccccc2OC1 : 71.42%
- COC(=O)c1ccc(OCC(N)=O)c(Br)c1 : -7.035%
- COc1ccc(CCN)c(OC)c1OC : 88.92%
- CC(=O)N1CCCN(C(=O)C2CCN(C)C(=O)C2)CC1 (configuration not stated) : 5.881%
- COCCN(C)Cc1ccc(C(=O)NC2CC2)cc1 : -0.2487%
- CC1(C)CN(C(=O)c2cccnc2)CC2(CCCC2)O1 : 7.262%
- CCCNC(=O)CC1Sc2ccccc2NC1=O (configuration not stated) : -11.06%
- CCC1CN(S(C)(=O)=O)c2ccccc2O1 (configuration not stated) : 58.8%
- Cn1c(CN2CCN(CCO)CC2)cc(=O)n(C)c1=O : -6.675%
- NCCCOC1CCN(C(=O)c2ccc(Br)o2)CC1 : 52.04%
- CCO[C@H]1CN(Cc2ccc3c(c2)CCO3)C[C@@H]1O : 13.22%
- Fc1ccc(N2CCNCC2)nc1 : 7.624%
- NCc1ccc2c(c1)OCCCO2 : 30.1%
- Cc1noc(C)c1CNC(=O)c1csc(S(N)(=O)=O)c1 : 64.63%
- CC(=O)Nc1ccc(-n2nc(C)cc2C)nc1 : 49%
- Ic1nnnn1-c1ccccc1 : 107.2%
- Cc1cc(C2CC2)nc(N)n1 : -11.44%
- CS(=O)(=O)CCCNc1ccc2c(c1)C(=O)CCC2 : 38.96%
- NCC(=O)N1CCN(c2ccccc2F)CC1 : 10.89%
- CC(CN1CCOCC1)Nc1ccncn1 (configuration not stated) : 0.4997%
- Cn1ccsc1=NC(=O)c1cnc(C2OCCO2)s1 : 20.63%
- CC(C)n1nnnc1SCC(O)C(F)(F)F (configuration not stated) : 22.62%
- CCC(CN)CC(F)F (configuration not stated) : 2.161%
- CCCN1CCCC(CNC(=O)c2ccn(CC)n2)C1 (configuration not stated) : 2.422%
- O=C(Cc1ccc(O)cc1Cl)N1CCCC1CO (configuration not stated) : 28.82%
- CC(C)c1cc(C(F)(F)CN)[nH]n1 : 25.09%
- NC(=O)C1CCCCN1Cc1cn2ccccc2n1 (configuration not stated) : 5.683%
- CC(=O)NCCNCc1ccc(C#N)cc1 : 7.526%
- CN(C)CCC(=O)c1ccc(F)cc1 : 107.7%
- CN(C(=O)NCc1ccco1)C1(CCO)CCOCC1 : -7.004%
- CN1CCC(Nc2ccc(Br)cn2)CC1 : 36.52%
- COc1cc(C#N)ccc1S(=O)(=O)N1CCCC1CN (configuration not stated) : 29.07%
- CCC(CO)NC(=O)Nc1nnc(-c2ccccn2)s1 (configuration not stated) : 5.067%
- NC(=O)C(NC(=O)c1sccc1Br)c1ccccc1 (configuration not stated) : 52.74%
- CC1CCCN(CC(=O)NC2(C#N)CCCC2)C1 (configuration not stated) : -6.481%
- COCc1noc(-c2ccc(C#N)cc2)n1 : -8.994%
- O=C(CCN1CCCC(O)C1)N1CCc2ccccc21 (configuration not stated) : -7.817%
- O=C(Cc1c[nH]c2ccccc12)N1CCNCC1 : 20.71%
- Cc1oc(C)c(S(N)(=O)=O)c1C(=O)Nc1ccccc1 : 21.87%
- O=C(NCC(O)C1CCCCC1)[C@@H](O)c1ccccc1 (some centres not stated) : 53.96%
- COc1ccc(Cl)cc1NC(=O)CN(C)CC(N)=O : 15.88%

7 of the entries, repeated:

- CC(=O)Nc1ccc(-n2nc(C)cc2C)nc1 | 49%
- COc1ccc(Cl)cc1NC(=O)CN(C)CC(N)=O | 15.88%
- NC(=O)C(NC(=O)c1sccc1Br)c1ccccc1 (configuration not stated) | 52.74%
- Cc1cccc(OCCNS(C)(=O)=O)c1 | 32.67%
- CCO[C@H]1CN(Cc2ccc3c(c2)CCO3)C[C@@H]1O | 13.22%
- CCC1CN(S(C)(=O)=O)c2ccccc2O1 (configuration not stated) | 58.8%
- CN(C(=O)NCc1ccco1)C1(CCO)CCOCC1 | -7.004%